# For at least one entry, the source does not settle the construct or the ends of the probe. At least one verdict was read from the data and is not stated in words by the source.
# The chains behind the UniProt entries cited, without tags or fusion partners. A line that says so, or that is headed by a name, gives the form on record, which may keep a tag or linker. Residues count along the entry.
# UniProt Q9KMA5, 2-104, tags left off: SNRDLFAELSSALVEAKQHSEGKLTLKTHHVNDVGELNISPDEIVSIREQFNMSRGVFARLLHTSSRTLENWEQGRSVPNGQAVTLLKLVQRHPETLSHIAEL
# Molecular target: HigA2 (Vibrio cholerae) (UniProt Q9KMA5)
# Test: SAXS
# Details: recombinant protein; protein details: C-terminal His6, uncleavable
sequence,measurement,value
TGCCATCTGTACGCTTGGTGCGTACACTTCCTA (double strand) [Opr33],binding result,binds
